Results deposited as PubChem BioAssay AID624099 (ICCB-Longwood, 2012)
Screen: 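Host factors E2 relies on to silence an HPV18 LCR reporter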 (primary screen). System: human C33A cervical carcinoma cells (HPV-negative) stably expressing BPV1 E2 and an HPV18 LCR luciferase reporter. Reagents: siRNA pool against human genes, 40 nM. Duration: 72 h. Detection: 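HPV18 LCR reporter light per well, converted to plate-wise z-scores that exclude control wells, and averaged over triplicate plates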. Reading the numbers: mean z-score and z-score: higher = stronger reporter signal, weaker E2 silencing. Hit rule: 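Mean z ≥ 2 together with z ≥ 2 in two or more of the three replicates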.
Shown is one part, drawn at random, of about 21,000 reagents. In the full data, 497 (2.4%) are marked active. 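Higher z means weaker E2 silencing; only reporter increases were scored, and knock-downs that hurt cell survival may mask genuine repressor factors.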 A number with no mark means an inactive call. The numbers tell different reagents against one gene apart.

The first 2 records, to show the layout:
AZGP1P2 (AZGP1 pseudogene 2) #1: mean z-score = 2.19 (active); z-score, replicate A = 2.19; z-score, replicate B = 2.26; z-score, replicate C = 2.13
AZGP1P2 (AZGP1 pseudogene 2) #2: mean z-score = 0.35; z-score, replicate A = 0.34; z-score, replicate B = 0.71; z-score, replicate C = 0

Results, repeating the preview:
AZGP1P2 (AZGP1 pseudogene 2) #1: mean z-score = 2.19 (active); z-score, replicate A = 2.19; z-score, replicate B = 2.26; z-score, replicate C = 2.13
AZGP1P2 (AZGP1 pseudogene 2) #2: mean z-score = 0.35; z-score, replicate A = 0.34; z-score, replicate B = 0.71; z-score, replicate C = 0
HSF2 (heat shock transcription factor 2): mean z-score = -0.45; z-score, replicate A = -0.51; z-score, replicate B = -0.37; z-score, replicate C = -0.48
PLCXD2: mean z-score = -1.25; z-score, replicate A = -1.16; z-score, replicate B = -1.44; z-score, replicate C = -1.15
HPR (haptoglobin-related protein): mean z-score = 1.05; z-score, replicate A = 1.54; z-score, replicate B = 0.77; z-score, replicate C = 0.84
FUBP3 (far upstream element binding protein 3): mean z-score = 0.68; z-score, replicate A = 0.71; z-score, replicate B = 0.49; z-score, replicate C = 0.85
FLJ39095: mean z-score = -0.23; z-score, replicate A = -0.27; z-score, replicate B = -0.31; z-score, replicate C = -0.12
EIF2AK2 (eukaryotic translation initiation factor 2 alpha kinase 2): mean z-score = 0.55; z-score, replicate A = 0.04; z-score, replicate B = 0.95; z-score, replicate C = 0.66
DNASE1L2 (deoxyribonuclease 1 like 2): mean z-score = -0.55; z-score, replicate A = -0.46; z-score, replicate B = -0.61; z-score, replicate C = -0.59
SSTR4 (somatostatin receptor 4): mean z-score = -0.64; z-score, replicate A = -0.77; z-score, replicate B = -0.61; z-score, replicate C = -0.54
LOC284379: mean z-score = 1.6; z-score, replicate A = 1.76; z-score, replicate B = 1.79; z-score, replicate C = 1.25
FAM9B (family with sequence similarity 9 member B): mean z-score = -0.32; z-score, replicate A = -0.86; z-score, replicate B = 0.03; z-score, replicate C = -0.12
LOC221344 (retired record): mean z-score = -1.1; z-score, replicate A = -0.65; z-score, replicate B = -1.03; z-score, replicate C = -1.62
MEF2A (myocyte enhancer factor 2A): mean z-score = -0.52; z-score, replicate A = -0.53; z-score, replicate B = -0.67; z-score, replicate C = -0.37
